Data as given in PubChem BioAssay AID504761 (Drosophila RNAi Screening Center, 2011)

Assay: 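Insect host genes that dengue virus relies on to spread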 (primary screen)
Cells: D.Mel-2 cells from Drosophila
Reagents: long dsRNA against Drosophila genes
Conditions: infection with dengue virus type 2; dose and infection time not stated
Read-out: 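Per well on two replicate plates, imaging gave the percent of cells positive for viral envelope protein, ranked by infection, and a nuclear count of cells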
Scale: infection score: higher = more virus-infected cells; cell count: higher = more cells in the well
Call rule: 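Low infection ranks in the two replicates (chance level up to 0.065) followed by a retest with a 1.5-fold or larger significant decrease, p below 0.05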
Meaning of the calls: active = confirmed: knock-down lowers infection; inactive = not picked or not confirmed
The deposit covers about 22,000 reagents; below is an unselected part of those that have a named target and a result. Over the whole deposit, 116 (0.52%) are marked active. 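Calls depend on retest data that are not deposited; infection was ranked per plate without normalising between plates; the unit of the infection score is not given.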 The raw values are shown without normalisation. Reagents against one gene are numbered here. Names joined by + are all predicted targets of the reagent. Not stated in the record: the amount of reagent, the time to read-out.

| gene | reagent no. | infection score, replicate 1 | infection score, replicate 2 | cell count, replicate 1 | cell count, replicate 2 | call |
| --- | --- | --- | --- | --- | --- | --- |
| obst-E | 1 | 1.6 | 3 | 6258 | 6868 | inactive |
| obst-E | 2 | 13 | 13.3 | 5535 | 5906 | inactive |
| Rsbp15 | 1 | 2.76 | 17.9 | 6892 | 6082 | inactive |
| Rsbp15 | 2 | 9.97 | 14.3 | 4322 | 4986 | inactive |
| Sec3 | 1 | 7.88 | 5.96 | 5849 | 6388 | inactive |
| Rac1 | 1 | 1.29 | 1.31 | 6224 | 6356 | inactive |
| Rac1 | 2 | 3.79 | 12.8 | 6783 | 6970 | inactive |
| SKIP | 1 | 2.42 | 3.77 | 6663 | 5653 | inactive |
| SKIP | 2 | 1.58 | 9.5 | 7287 | 5213 | inactive |
| SKIP | 3 | 0.75 | 7.96 | 6785 | 4947 | inactive |
| SKIP | 4 | 8.47 | 7.08 | 5996 | 6004 | inactive |
| SKIP | 5 | 2.49 | 10 | 6377 | 6883 | inactive |
| Unc-115b + p24-2 | 1 | 9.74 | 16.9 | 2320 | 4999 | inactive |
| Cht6 | 1 | 1.69 | 0.78 | 6624 | 6549 | inactive |
| Cht6 | 2 | 1.51 | 1.89 | 6352 | 6821 | inactive |
| Cht6 | 3 | 0.82 | 7.42 | 6066 | 6362 | inactive |
| Cht6 | 4 | 20.6 | 24.9 | 6897 | 5202 | inactive |
| CG15083 | 1 | 0.58 | 1.3 | 6351 | 6559 | inactive |
| CG9338 | 1 | 43.8 | 33.7 | 4265 | 1506 | inactive |
| CG9338 | 2 | 4.74 | 5.54 | 6240 | 5725 | inactive |
| CG4053 | 1 | 4.21 | 15.8 | 6813 | 5532 | inactive |
| CG4053 | 2 | 18.5 | 17.2 | 5916 | 6307 | inactive |
| CG31274 + MESK4 | 1 | 5.9 | 2.14 | 6082 | 5457 | inactive |
| CG14238 | 1 | 2.58 | 0.72 | 6287 | 557 | inactive |
| CG14238 | 2 | 9.34 | 19.3 | 2376 | 5699 | inactive |
| CG15167 | 1 | 3.22 | – | 6055 | 613 | inactive |
| CG3107 | 1 | 22.1 | 32.8 | 6013 | 5713 | inactive |
| side-IV | 1 | 3.03 | 16.9 | 6206 | 4737 | inactive |
| CG1075 (retired record) | 1 | 6.9 | 8.42 | 6417 | 6244 | inactive |
| Cyp303a1 | 1 | 11.7 | 15.4 | 3182 | 5775 | inactive |
| Vha16-5 | 1 | 1.04 | 1.06 | 6470 | 6332 | inactive |
| Mau2 | 1 | 5.5 | 10.2 | 6894 | 6795 | inactive |
| Iyd | 1 | 3.32 | 1.83 | 6032 | 5859 | inactive |
| Iyd | 2 | 4.54 | 8.32 | 5754 | 6200 | inactive |
| bard | 1 | 2.72 | 1.38 | 7127 | 6806 | inactive |
| Pdh | 1 | 7.45 | 15.3 | 6513 | 5749 | inactive |
| Pdh | 2 | 4.45 | 8.76 | 6479 | 6380 | inactive |
| CG4896 | 1 | 6.44 | 2.89 | 6013 | 6822 | inactive |
| CG4896 | 2 | 2.44 | 7.91 | 5610 | 6432 | inactive |

3 of these entries in another layout.
gene,reagent no.,"infection score, replicate 1","infection score, replicate 2","cell count, replicate 1","cell count, replicate 2",call
CG14238,1,2.58,0.72,6287,557,inactive
CG14238,2,9.34,19.3,2376,5699,inactive
CG15167,1,3.22,,6055,613,inactive
